PubChem BioAssay AID624099 | ICCB-Longwood | 2012
Shown is one part, drawn at random, of about 21,000 deposited reagents. Of all reagents, 497 (2.4%) are marked active. 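Higher z means weaker E2 silencing; only reporter increases were scored, and knock-downs that hurt cell survival may mask genuine repressor factors.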

Aim: 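Knock-downs relieving repression by E2 of an HPV18 LCR luciferase reporter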 (primary screen)
Cells: human C33A cervical carcinoma cells (HPV-negative) stably expressing BPV1 E2 and an HPV18 LCR luciferase reporter
Reagent: siRNA pool against human genes, 40 nM
Timing: 72 h
Measurement: 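HPV18 LCR reporter light per well, converted to plate-wise z-scores that exclude control wells, and averaged over triplicate plates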
Direction: mean z-score and z-score: higher = stronger reporter signal, weaker E2 silencing
Rule for the call: 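Mean z ≥ 2 together with z ≥ 2 in two or more of the three replicates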

{"gene knocked down": "DNAJC3", "mean z-score": -1.38, "z-score, replicate A": -1.08, "z-score, replicate B": -1.49, "z-score, replicate C": -1.57, "activity call": "inactive"}
{"gene knocked down": "GPR27", "mean z-score": -1.49, "z-score, replicate A": -1.33, "z-score, replicate B": -1.4, "z-score, replicate C": -1.75, "activity call": "inactive"}
{"gene knocked down": "OR56A1", "mean z-score": 0.29, "z-score, replicate A": -0.01, "z-score, replicate B": 0.53, "z-score, replicate C": 0.35, "activity call": "inactive"}
{"gene knocked down": "LOC51212 (retired record)", "mean z-score": 0.1, "z-score, replicate A": 0.45, "z-score, replicate B": -0.04, "z-score, replicate C": -0.1, "activity call": "inactive"}
{"gene knocked down": "OSGEP", "mean z-score": 0.19, "z-score, replicate A": 0.46, "z-score, replicate B": 0.15, "z-score, replicate C": -0.03, "activity call": "inactive"}
{"gene knocked down": "ZNF628", "mean z-score": 1, "z-score, replicate A": 0.43, "z-score, replicate B": 1.1, "z-score, replicate C": 1.47, "activity call": "inactive"}
{"gene knocked down": "RIMS4", "mean z-score": 1.15, "z-score, replicate A": 1.59, "z-score, replicate B": 0.95, "z-score, replicate C": 0.9, "activity call": "inactive"}
{"gene knocked down": "ADAMTS5", "mean z-score": 1.3, "z-score, replicate A": 1.31, "z-score, replicate B": 1.08, "z-score, replicate C": 1.52, "activity call": "inactive"}
{"gene knocked down": "TGM7", "mean z-score": -0.97, "z-score, replicate A": -0.8, "z-score, replicate B": -1.16, "z-score, replicate C": -0.97, "activity call": "inactive"}
{"gene knocked down": "VPS16", "mean z-score": 2.24, "z-score, replicate A": 2.35, "z-score, replicate B": 1.89, "z-score, replicate C": 2.48, "activity call": "active"}
{"gene knocked down": "TXK", "mean z-score": -0.5, "z-score, replicate A": -0.19, "z-score, replicate B": -0.71, "z-score, replicate C": -0.6, "activity call": "inactive"}
{"gene knocked down": "RARS2", "mean z-score": 1.39, "z-score, replicate A": 1.38, "z-score, replicate B": 1.36, "z-score, replicate C": 1.42, "activity call": "inactive"}
{"gene knocked down": "KMO", "mean z-score": 2.52, "z-score, replicate A": 2.52, "z-score, replicate B": 2.45, "z-score, replicate C": 2.59, "activity call": "active"}
{"gene knocked down": "GGA2", "mean z-score": 0.27, "z-score, replicate A": 0.29, "z-score, replicate B": 0.25, "z-score, replicate C": 0.29, "activity call": "inactive"}

Looked up above.
Under “z-score, replicate A”, VPS16 has 2.35
Value of RARS2 under “z-score, replicate A”: 1.38
